Compound potency records, mixed from different reports. Data source: NIAID ChemDB in PubChem.

Shared fields: whole-cell or culture tests; species: HIV-1

Rows are shuffled and stem from different studies. ECn is the concentration giving n% inhibition of infection, replication or growth. a–b is a range or a potency band. An empty or dashed field is not shown.

smiles,mutations,read-out,strain,method,setting,cell line,value
CCC1(C)CCN(c2c(-c3ccc(OCC(C)C)cn3)cnc(C)c2[C@H](OC(C)(C)C)C(=O)O)CC1,,EC50,NL4-3,luminescence,,MT-2,3 µM
O=C(O)c1ccc(-c2c3nc(c(-c4ccc(C(=O)O)cc4)c4ccc([nH]4)c(-c4ccc(C(=O)O)cc4)c4nc(c(-c5ccc(C(=O)O)cc5)c5ccc2[nH]5)C=C4)C=C3)cc1,,EC50,IIIB,cell fusion / fluorescence,,MT-2,<10 µg/mL
CCN(c1cccc2cccnc12)S(=O)(=O)c1ccc(F)cc1F,,EC50,NL4-3,p24 / ELISA,pseudotyped,H9,0.27 µM
CN(C)CCCNC(=O)CCNC(=O)c1cc(NC(=O)c2nc(NC(=O)CCNC(=O)c3cc(NC(=O)c4nc(NC(=O)CCCNC(=O)c5cc(NC(=O)c6nc(NC(=O)CCNC(=O)c7cc(NC(=O)c8nccn8C)cn7C)cn6C)cn5C)cn4C)cn3C)cn2C)cn1C,,EC50,SF162,p24,,PBMC,>1 µM
Nc1ccn([C@H]2CC[C@@H](CO)O2)c(=O)n1,Wild type,EC50,,β-galactosidase,,MAGI,0.505 µM
Cc1ncc(-c2ccc(OCC(C)C)cn2)c(N2CCC3(CCCCCC3)C2)c1[C@H](OC(C)(C)C)C(=O)O,,EC50,NL4-3,luminescence,,MT-2,43.2 µM
Nc1c(B(O)O)c2c3c4c1CC(O)c1c(N)c(B(O)O)c5c(c14)c1c4c(c6c7c(cc(B(O)O)c8c7c4c4c(c31)C(C2C(=O)O)C(C(=O)O)C(C(=O)O)C4N8)-c1cccc(B(O)O)c1N6)C5C(=O)O,,EC50,,syncytia / visual reading,,MT-4 + MOLT-4,480 µg/mL
C=C1[C@H](CO)[C@H]1Cn1cnc2c(=O)[nH]cnc21,,EC50,,,,,>100 µM
Nc1ncnc2c1ncn2[C@@H]1O[C@H](CO)[C@H](O)[C@H]1O,,EC90,,syncytia,,C8166,>5 µM
O=C(N/N=C/c1cccs1)c1ccccc1,,EC50,,cell fusion / luminescence,,HeLa,>112 µM
O=C(NCCCC(NC(=O)c1ccc(O)c(O)c1)C(=O)O)c1ccc(O)c(O)c1,,EC50,LAI,cytopathic effect / neutral red,,MT-2,>62.5 µM
NC(=O)C[C@@H](N)C(N)=O,,EC50,IIIB,,,CEM,500 µM
COC(=O)C(CCCCNC(=O)/C=C/c1ccc(O)c(O)c1)NC(=O)/C=C/c1ccc(O)c(O)c1,,EC50,LAI,cytopathic effect / neutral red,,MT-2,>62.5 µM
O=C(O)CCC1=C(CC(=O)O)c2cc3nc(cc4[nH]c(cc5[nH]c(cc1n2)c(CC(=O)O)c5CCC(=O)O)c(CC(=O)O)c4CCC(=O)O)C(CC(=O)O)=C3CCC(=O)O,,EC50,IIIB,cell fusion / fluorescence,,MT-2,>10 µg/mL
CCN(CC)CCNc1nc(NCCCNC(=O)c2cccc(C(=O)NCCCNc3nc4c(c(NCCN(CC)CC)n3)CC=CC4)c2)nc2c1CC=CC2,,EC50,MN,ELISA,6 d,H9,0.05–0.15 µM
C=C1[C@H](CO)[C@H]1Cn1cnc2ncnc(Cl)c21,,EC50,,,,,>100 µM
Cc1ccn2c(C3SCCS3)cnc2c1,,EC50,IIIB,syncytia,,CEM,>4 µM
COc1ccc(S(=O)(=O)N(CC(C)C)C[C@@H](O)CCN(CC2CCCC2)S(=O)(=O)c2nc3ccccc3[nH]2)cc1,,EC50,IIIB,p24,,CEM,<1 µM
Cc1ncc(-c2ccc(OCC(C)C)cn2)c(N2CCC3(CCCC3)C2)c1[C@H](OC(C)(C)C)C(=O)O,,EC50,NL4-3,luminescence,,MT-2,11.9 µM
CCOC(=O)N1CCC(=C(c2cc(Cl)c(OC)c(C(=O)OC)c2)c2cc(Cl)c(OC)c(C(=O)OC)c2)CC1,,EC50,RF,,,CEM + CEM-SS,1.26 µM
CSCC[C@H](N)C(N)=O,,EC50,IIIB,,,CEM,500 µM
C=C1[C@H](CO)[C@H]1Cn1cnc2c(N)nc(N)nc21,,EC50,,,,,>100 µM
O=S(=O)(Nc1cccc2cccnc12)c1ccc(F)cc1F,,EC50,NL4-3,p24 / ELISA,pseudotyped,H9,0.23 µM
C=Cc1c(C)c2cc3nc(c(CC(=O)O)c4nc(cc5[nH]c(cc1[nH]2)c(C)c5CC)C(C)=C4C(=O)O)[C@@H](CCC(=O)O)[C@@H]3C,,EC50,IIIB,cell fusion / fluorescence,,MT-2,>10 µg/mL
O=C(NCC(NC(=O)c1ccc(O)c(O)c1)C(=O)O)c1ccc(O)c(O)c1,,EC50,LAI,cytopathic effect / neutral red,,MT-2,94 µM
CC(C)CC(NC(=O)[C@@H](NC(=O)[C@H](Cc1c[nH]c2ccccc12)NC(=O)CCCCC(=O)Nc1ccn([C@H]2CS[C@@H](CO)O2)c(=O)n1)C(C)C)[C@@H](O)CC(=O)NC(Cc1ccccc1)c1ccccc1,,EC50,,syncytia,,MT-4,10 µM
Cc1cccn2c(C3OCCO3)cnc12,,EC50,IIIB,syncytia,,CEM,>100 µM
O=C(NN=C1CCCCC1)NC1CCCCC1,,EC50,,cell fusion / luminescence,,HeLa,>112 µM
CCN1c2ncc(CCOc3ccc(/C=C(\C)C(=O)O)c4ccccc34)cc2C(=O)N(C)c2ccc(F)nc21,RT-K103N Y181C,EC50,,p24,,C8166,<0.1 µM
CCC1(C)CCN(c2c(-c3ccc(OCCOc4ccccc4Cl)cn3)cnc(C)c2[C@H](OC(C)(C)C)C(=O)O)CC1,,EC50,NL4-3,luminescence,,MT-2,7.1 µM
Cc1cn([C@H]2C=C[C@@H](COC(=O)OC3CCCCC3)O2)c(=O)[nH]c1=O,,EC50,LAV,p24 / ELISA,,CEM-F + CEM,0.6 µg/mL
CCN1c2ncc(CCOc3ccc4cc(C(=O)NC(C)(C)C(=O)O)ccc4c3)cc2C(=O)N(C)c2cccnc21,RT-K103N Y181C,EC50,,p24,,C8166,0.1–1 µM
CN(C)C(=O)[C@H]1C[C@@H](NC(=O)N[C@]23CC[C@@H](C4(C)CC4)[C@@H]2[C@H]2CC[C@@H]4[C@@]5(C)CC=C(c6ccc(C(=O)O)cc6)C(C)(C)[C@@H]5CC[C@@]4(C)[C@]2(C)CC3)C1(C)C,,EC50,92HT599,p24 / ELISA,,MT-2,≤0.01 µM
COc1ccc(S(=O)(=O)N(CC(C)C)C[C@@H](O)CCN(CC(C)C)S(=O)(=O)N(C)C)cc1,,EC50,IIIB,p24,,CEM,<1 µM
Cc1ncc(-c2ccc(OCCOC(C)(C)C)cn2)c(N2CCC3(CCCC3)CC2)c1[C@H](OC(C)(C)C)C(=O)O,,EC50,NL4-3,luminescence,,MT-2,5 µM
Cc1cn([C@H]2C=C[C@@H](CO)O2)c(=O)[nH]c1=S,,EC50,LAV,p24 / ELISA,,CEM-F + CEM,>10 µg/mL
O=C(Nc1cccc2cccnc12)c1ccc(F)cc1F,,EC50,NL4-3,p24 / ELISA,pseudotyped,H9,>50 µM
Cc1ncc(-c2ccc(OCCc3ccc(F)cc3)cn2)c(N2CCC(C)(c3ccccc3)CC2)c1[C@H](OC(C)(C)C)C(=O)O,,EC50,NL4-3,luminescence,,MT-2,0.7 µM
C=C1[C@H](CO)[C@H]1Cn1cnc2c(N)ncnc21,,EC50,,,,,>100 µM
CC1([C@@H]2CC[C@]3(NC(=O)N4CCC(CO)CC4)CC[C@]4(C)[C@H](CC[C@@H]5[C@@]6(C)CC=C(c7ccc(C(=O)O)cc7)C(C)(C)[C@@H]6CC[C@]54C)[C@@H]23)CC1,,EC50,92HT599,p24 / ELISA,,MT-2,≤0.01 µM
O=C(N/N=C/c1ccc(O)cc1)Nc1cccc2nsnc12,,EC50,,luciferase,pseudotyped,Cf2Th-CD4/CXCR4,6.9 µM
Cc1ccn2c(C3OCCO3)cnc2c1,,EC50,IIIB,syncytia,,CEM,>100 µM
O=S(=O)(Nc1cccc2ccccc12)c1ccc(F)cc1F,,EC50,NL4-3,p24 / ELISA,pseudotyped,H9,>30 µM
COc1ccc(-c2sc(C)c(C(OC(C)(C)C)C(=O)O)c2-c2ccc3c(c2)CCCO3)cc1,,EC50,NL4-3,ATP,,MT-4,0.62 µM
CN(C)CCNC(=O)N[C@]12CC[C@@H](C3(C)CC3)[C@@H]1[C@H]1CC[C@@H]3[C@@]4(C)CC=C(c5ccc(C(=O)O)cc5)C(C)(C)[C@@H]4CC[C@@]3(C)[C@]1(C)CC2,,EC50,92HT599,p24 / ELISA,,MT-2,≤0.01 µM
CC(=O)NN=C1CCC(=NNC(C)=O)CC1,,EC50,,cell fusion / luminescence,,HeLa,>112 µM
CCC1(C)CCN(c2c(-c3ccc(OCC4CCC4)cn3)cnc(C)c2[C@H](OC(C)(C)C)C(=O)O)CC1,,EC50,NL4-3,luminescence,,MT-2,4.4 µM
O=S(=O)(Nc1cccc2cccnc12)c1ccccc1F,,EC50,NL4-3,p24 / ELISA,pseudotyped,H9,>50 µM
CCN1c2ncc(CCOc3ccc(CC(=O)NN)c4ccccc34)cc2C(=O)N(C)c2ccc(Cl)nc21,,EC50,WT,p24,,C8166,<0.1 µM
Cc1cn([C@H]2C=C[C@@H](CO)O2)c(=O)[nH]c1=O,,EC50,LAV,p24 / ELISA,,CEM-F + CEM,0.1 µg/mL
CC(C)C[C@H](N)C(=O)O,,EC50,IIIB,,,CEM,500 µM
COC(=O)C(CCCNC(=O)/C=C/c1ccc(O)c(O)c1)NC(=O)/C=C/c1ccc(O)c(O)c1,,EC50,LAI,cytopathic effect / neutral red,,MT-2,>62.5 µM
O=C(N/N=C/c1ccncc1)C1CCCCC1,,EC50,,cell fusion / luminescence,,HeLa,>112 µM
CCN(CC)CCNc1ccnc(NCCCCCCNC(=O)c2ccc(C(=O)NCCCCCCNc3nccc(NCCN(CC)CC)n3)cc2)n1,,EC50,IIIB,syncytia / ELISA,,H9,1.1 µM
O=C(N/N=C/c1ccccc1)Nc1ccccc1,,EC50,,cell fusion / luminescence,,HeLa,>112 µM
COC(=O)C(CCCCNC(=O)c1ccc(O)c(O)c1)NC(=O)c1ccc(O)c(O)c1,,EC50,LAI,cytopathic effect / neutral red,,MT-2,>62.5 µM
CCN(CC)CCNc1ccnc(NCCCNC(=O)c2cccc(C(=O)NCCCNc3nccc(NCCN(CC)CC)n3)c2)n1,,EC50,,ELISA,,HUT34/HIV-1 + HUT34,>10 µM
CC1([C@@H]2CC[C@]3(NC(=O)NC(CO)CO)CC[C@]4(C)[C@H](CC[C@@H]5[C@@]6(C)CC=C(c7ccc(C(=O)O)cc7)C(C)(C)[C@@H]6CC[C@]54C)[C@@H]23)CC1,,EC50,92HT599,p24 / ELISA,,MT-2,≤0.01 µM
COC(=O)CCCC(=O)N1CCC(=C(c2cc(C)c(OC)c(C(=O)OC)c2)c2cc(C)c(OC)c(C(=O)OC)c2)CC1,,EC50,RF,,,CEM + CEM-SS,1.04 µM
O=C(/C=C/c1ccc(O)c(O)c1)NCCCC[C@H](NC(=O)/C=C/c1ccc(O)c(O)c1)C(=O)O,,EC50,LAI,cytopathic effect / neutral red,,MT-2,>62.5 µM
CCN(CC)CCNc1ccnc(NCCCNC(=O)CCC(=O)NCCCNc2nccc(NCCN(CC)CC)n2)n1,,EC50,IIIB,syncytia / ELISA,,H9,0.5 µM
COC(=O)c1cc(C(=C2CCN(C(=O)OC)CC2)c2cc(Cl)c(OC)c(C(=O)OC)c2)cc(Cl)c1OC,,EC50,RF,,,CEM + CEM-SS,8.4 µM
O=S(=O)(Nc1cccc2cccnc12)c1ccc(Cl)cc1,,EC50,NL4-3,p24 / ELISA,pseudotyped,H9,>50 µM
O=S(=O)(O)c1ccc(-c2c3nc(c(-c4ccc(S(=O)(=O)O)cc4)c4ccc([nH]4)c(-c4ccc(S(=O)(=O)O)cc4)c4nc(c(-c5ccc(S(=O)(=O)O)cc5)c5ccc2[nH]5)C=C4)C=C3)cc1,,EC50,IIIB,cell fusion / fluorescence,,MT-2,>10 µg/mL
Cc1ccn2c(C(SCCc3ccccc3)SCCc3ccccc3)cnc2c1,,EC50,IIIB,syncytia,,CEM,>4 µM
COc1ccc(S(=O)(=O)N(CC(C)C)C[C@@H](O)CCN(CC2CCCC2)S(=O)(=O)Cc2cc(C)on2)cc1,,EC90,IIIB,p24,,CEM,1 µM
CCN1c2ncc(CCOc3ccc(CC(C)C(=O)O)c4ccccc34)cc2C(=O)N(C)c2ccc(C)nc21,RT-K103N Y181C,EC50,,p24,,C8166,<0.1 µM
CC(C)C[C@H](NC(=O)[C@H](Cc1ccccc1)NC(=O)C[C@H](O)[C@H](Cc1ccccc1)NC(=O)OC(C)(C)C)C(=O)N[C@@H](Cc1ccccc1)C(=O)Nc1ccn([C@H]2CS[C@@H](CO)O2)c(=O)n1,,EC50,,syncytia,,MT-4,1 µM
CCOC(=O)N1CCC(=C(c2cc(Cl)c(OC)c(C(=O)O)c2)c2cc(Cl)c(OC)c(C(=O)O)c2)CC1,,EC50,RF,,,CEM + CEM-SS,88.5 µM
CC(C)CN(CC(O)CCN1CCCC[C@H]1C(=O)NC(C)(C)C)S(=O)(=O)c1ccccc1,,EC90,IIIB,p24,,CEM,1 µM
CCN(CC)CCNc1ccnc(NCCCNC(=O)c2ccc(C(=O)NCCCNc3nccc(NCCN(CC)CC)n3)cc2)n1,,EC50,IIIB,syncytia / ELISA,,H9,0.25 µM
COc1ccc(S(=O)(=O)N(CCc2ccccc2)CC[C@H](O)CN(CC(C)C)S(=O)(=O)c2ccc(OC)cc2)cc1,,EC90,IIIB,p24,,CEM,1 µM
CC1([C@@H]2CC[C@]3(NC(=O)NC4C=C[C@H](CO)C4)CC[C@]4(C)[C@H](CC[C@@H]5[C@@]6(C)CC=C(c7ccc(C(=O)O)cc7)C(C)(C)[C@@H]6CC[C@]54C)[C@@H]23)CC1,,EC50,92HT599,p24 / ELISA,,MT-2,≤0.01 µM
COc1ccc(S(=O)(=O)N(CC(C)C)C[C@@H](O)CCN(CC2CCCC2)S(=O)(=O)C2CCS(=O)(=O)CC2)cc1,,EC50,IIIB,p24,,CEM,<1 µM
CC(=O)OC[C@@H]1C=C[C@H](n2cc(C)c(=O)[nH]c2=O)O1,,EC50,LAV,p24 / ELISA,,CEM-F + CEM,3.2 µg/mL